Experimental data as given in patent US7060277B2 (priority 1996, dated 2006).

What was measured:
[1] = test system: SEB; conditions: rabbit serum, third bleed; LC peptides coupled to proteosomes, C peptides to KLH; 100 μg IM at 0 and 3 weeks
[2] = test system: SEB; assay: Murine SEB-binding IgG titers after vaccination; conditions: 3 weeks before challenge

Substance | SEB IgG Titer [1] | IgG Titer ([2]; Trial 2, vaccine route IN) | IgG Titer ([2]; Trial 3, vaccine route IM)
Y V D V F G A N Y Y Y Q C | 50 | – | –
lcT N K K K V T A Q E L D | – | 200 | 200
lcY N K K K A T V Q E L D | 1,600 | 200 | –
